This data set in a line: general procedure: Fmoc solid-phase peptide synthesis; TentaGel S Ram S resin. To be noted: whole synthesis, analytical HPLC and MS, scale of the general procedure 1 g resin (0.25 mmol/g), 1.05 g resin (0.23 mmol/g).

In the case of “H-Y-Aib-EGTFISDYSIELDK-K(Hexadecanoyl-isoGlu)-HQQDFVNWLLAQGPSSGAPPPS-NH2”, the “crude purity (method not given)” value is given as 30% and the “final HPLC purity” value is 96%.

(Values after patent US12703729B2 (Zealand Pharma A/S, priority 2014, dated 2026).)
